Measured values from several laboratories, pooled; numbers as filed in NIAID ChemDB.

Shared fields: host cell toxicity; cells: HFF; read-out: CC50

Conditions beyond the fields shown may differ between rows. CCn is the concentration with n% toxicity to the cells. An empty or dashed field is not shown.

| SMILES | method | value |
|---|---|---|
| O[C@@H]1[C@H](O)[C@H](O)CO[C@H]1n1c(Br)nc2cc(Cl)c(Cl)cc21 |  | 143 µM |
| CC(C)=CCc1ccc(O)c(=O)cc1C(C)C | MTT | >100 µM |
| OCCOCn1c(Br)nc2c(Cl)cc(Cl)cc21 | visual reading | >100 µM |
| Cc1ccc(CNC(=O)[C@H](CCCCNC(=O)OCc2ccccc2)NC(=O)[C@H](CC2CCCCC2)NC(=O)Cc2cccnc2)cc1 | resazurin | >100 µM |
| OCCOCn1c(Cl)nc2c(Cl)cc(Cl)cc21 | visual reading | >100 µM |
| COc1cc(OC)c(NC(=S)Nc2ccc(NC(=O)c3ccco3)cc2C#N)cc1Cl | MTS | ≥10 µg/mL |
| Nc1nc(OCc2ccccc2)c2ncn(/C=C3/C[C@@H]3CO)c2n1 | neutral red | >300 µM |
| [N-]=[N+]=NC(CBr)c1cn([C@H]2C[C@H](O)[C@@H](CO)O2)c(=O)[nH]c1=O |  | 91 µM |
| O=C(Nc1ccc(NC(=S)Nc2ccc(Cl)c(C(F)(F)F)c2)cc1)c1ccco1 | MTS | ≥10 µg/mL |
| CC(C)Sc1nc(N)nc2c1ncn2/C=C1/C[C@@H]1CO | neutral red | >300 µM |
| Nc1nc2c(ncn2COCCO)c(=O)[nH]1 |  | >405 µM |
| CC(N=[N+]=[N-])c1cn([C@H]2C[C@H](O)[C@@H](CO)O2)c(=O)[nH]c1=O |  | >125 µM |
| Cc1ccc(CNC(=O)[C@H](CCc2ccccc2)NC(=O)[C@H](CCc2ccccc2)NC(=O)[C@@H](N)Cc2ccncc2)cc1 | resazurin | 68 µM |
| CC(C)(C)COc1nc(N)nc2c1ncn2/C=C1/C[C@@H]1CO | neutral red | >300 µM |
| Nc1ncnc2ncn(/C=C3/C(F)C3(CO)CO)c12 |  | >100 µM |
| Cc1ccc(CNC(=O)[C@@H](NC(=O)[C@H](CCc2ccccc2)NC(=O)C(NC(=O)c2cnc(C)cn2)C(C)(C)C)C(C)C)cc1 | resazurin | 2.9 µM |
| CC(C)c1ccc(O)c(O)c(=O)c1 | MTT | >100 µM |
| CC(N)c1cn([C@H]2C[C@H](O)[C@@H](CO)O2)c(=O)[nH]c1=O |  | 330 µM |
| CN(C)n1cc(C(=O)O)c(=O)c2cc(N)c(N3CCN(c4ccccn4)CC3)cc21 | MTT | 365.8 µM |
| CCOc1nc(N)nc2c1ncn2/C=C1/C[C@@H]1CO | neutral red | >300 µM |
| CN(C)c1nc2c(Cl)cc(Cl)cc2n1COC(CO)CO | visual reading | >100 µM |
| CNc1cc2c(=O)c(C(=O)O)cn(C)c2cc1N1CCN(c2ccccn2)CC1 | MTT | >500 µM |
| CCCCCCCC/C=C\CCCCCCCOCCCOP1(=O)CO[C@@H](Cn2ccc(N)nc2=O)CO1 | neutral red | 46 µM |
| CCCCOc1nc(N)nc2c1ncn2/C=C1/C[C@@H]1CO | neutral red | >300 µM |
| CCCCCCCCCCCCCCCCOCCCOP(=O)(O)CO[C@H](CO)Cn1ccc(N)nc1=O | neutral red | 31 µM |
| CN(C)c1cc2c(=O)c(C(=O)O)cn(C)c2cc1N1CCN(c2ccccn2)CC1 | MTT | 350 µM |
| CCCCCCCC/C=C\CCCCCCCOCCOP1(=O)CO[C@@H](Cn2ccc(N)nc2=O)CO1 | neutral red | 34 µM |
| Nc1cc2c(=O)c(C(=O)O)cn(C3CC3)c2cc1N1CCN(c2ccccn2)CC1 | MTT | 400.8 µM |
| CCCSc1nc(N)nc2c1ncn2/C=C1/C[C@@H]1CO | neutral red | >300 µM |
| CCOc1ccc(-c2c3cc(O)c(=O)cc-3oc3cc(O)c(O)cc23)cc1 | MTT | >100 µM |
| COc1cc(OC)c(NC(=S)Nc2cc(OC)c(NC(=O)c3ccco3)cc2OC)cc1Cl | MTS | ≥10 µg/mL |
| C=CCO[C@]1(C)C[C@@H](C)CN(C)[C@H](C)[C@@H](O)[C@](C)(O)[C@@H](CC)OC(=O)[C@H](C)[C@@H](O[C@H]2C[C@@](C)(OC)[C@@H](O)[C@H](C)O2)[C@H](C)[C@H]1O[C@@H]1O[C@H](C)C[C@H](N(C)C)[C@H]1O | MTS | 96 µM |
| Cc1ccc(CNC(=O)[C@@H](NC(=O)[C@H](CCc2ccccc2)NC(=O)[C@H](CCc2ccccc2)NCc2cnccn2)C(C)C)cc1 | resazurin | >50 µM |
| OC[C@H]1O[C@@H](n2c(Br)nc3cc(Cl)c(Cl)cc32)[C@H](O)[C@@H]1O |  | 151 µM |

A second listing of 2 rows from above:

SMILES | method | value
Nc1nc2c(ncn2COCCO)c(=O)[nH]1 |  | >405 µM
Nc1ncnc2ncn(/C=C3/C(F)C3(CO)CO)c12 |  | >100 µM